The target of the assay is Nitroreductase NfsA (Escherichia coli O157:H7, UniProt Q8X6S1). In words: Cytotoxicity in T79-A3 (NR-positive) cell lines.

By UniProt entry, the sequences of proteins in these tests, tags left out. Residues count along the entry.
UniProt Q8X6S1, 1-240: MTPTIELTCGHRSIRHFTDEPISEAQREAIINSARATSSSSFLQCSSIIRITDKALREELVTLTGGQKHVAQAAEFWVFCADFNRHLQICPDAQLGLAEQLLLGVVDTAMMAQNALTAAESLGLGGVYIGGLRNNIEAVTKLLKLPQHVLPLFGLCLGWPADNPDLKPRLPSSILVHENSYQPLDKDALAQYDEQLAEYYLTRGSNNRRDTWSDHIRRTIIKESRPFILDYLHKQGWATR

pIC50: −log10 of the molar value.

As usually defined, the pIC50 is −log10 of the IC50, conventionally taken in molar units. A high value points to a small IC50.

Molecule `O=[N+]([O-])c1cnc(N(CCCl)CCCl)s1` gave a pIC50 of 3.68.

For the origin of these results see BindingDB's records for 9111301 (Institute of Cancer Research, 1997).
